This note sets out measurements from publication PMC9131872, “Structural Insight into Molecular Inhibitory Mechanism of InsP6 on African Swine Fever Virus mRNA-Decapping Enzyme g5Rp” (2022).

Series [1] concerns g5Rp-ΔN (Nudix domain, connecting residues 1 to 35 and 125 to 250 directly), African swine fever virus (ASFV), P32092 1-250. As to the kind of experiment: cross-linking.
Series [2] relates to g5Rp-ΔC (helical domain, residues 36 to 124), African swine fever virus (ASFV), P32092 36-124. The series can be described thus: cross-linking.

As usually defined, the stoichiometry N is the number of molecules, sites or subunits per partner or assembly.

Turning to “g5Rp-ΔN (Nudix domain, connecting residues 1 to 35 and 125 to 250 directly)”, the stoichiometry N in series [1] was 2. Take “g5Rp-ΔC (helical domain, residues 36 to 124)”: in series [2], the stoichiometry N was found to be 2.
